Compound potency records, mixed from different reports. Data source: NIAID ChemDB in PubChem.

Common to all: tests in culture; organism: HIV-1; endpoint: EC50

a–b is a range or a potency band. Lines come from different laboratories, so protocols vary. Blank or dashed fields: not listed here. ECn is the concentration giving n% inhibition of infection, replication or growth.

{"SMILES": "Cc1cc(N2CCS(=O)CC2)ccc1NC(=O)COc1ccc(Cl)cc1C(=O)c1nccs1", "strain": "Nevirapine-resistant (RT Y181C)", "method": "cytopathic effect / propidium iodide", "mutations": "RT-Y181C", "cells": "MT-4", "result": "0.101–1 µM"}
{"SMILES": "CC(C)C1=C2[C@H]3CC[C@@H]4[C@@]5(C)CC[C@H](OC(=O)[C@H]6C[C@@H](C(=O)O)C6(C)C)C(C)(C)[C@@H]5CC[C@@]4(C)[C@]3(C)CC[C@@]2([C@@H](O)CNCC(C)(C)NC(=O)c2cccnc2)CC1=O", "strain": "92HT599", "method": "p24 / ELISA", "cells": "MT-2", "result": "<1 µM"}
{"SMILES": "Cc1cc(S(N)(=O)=O)ccc1NC(=O)COc1ccc(Cl)cc1C(=O)c1cc(F)cc(C(F)(F)F)c1", "strain": "HXB2", "method": "β-galactosidase", "mutations": "RT-V108I", "cells": "HeLa + HELA CD4+", "result": "<0.01 µM"}
{"SMILES": "Cc1nc2ccc(C(=O)NC(C)(C)CNCC[C@@]34CC[C@]5(C)[C@H](CC[C@@H]6[C@@]7(C)CC[C@H](OC(=O)[C@H]8C[C@@H](C(=O)O)C8(C)C)C(C)(C)[C@@H]7CC[C@]65C)C3=C(C(C)C)C(=O)C4)cc2[nH]1", "strain": "92HT599", "method": "p24 / ELISA", "cells": "MT-2", "result": "<1 µM"}
{"SMILES": "Cc1ncc(-c2ccc(O[C@@H](C)COc3ccccc3)cn2)c(N2CCC(C)(C)CC2)c1[C@H](OC(C)(C)C)C(=O)O", "strain": "NL4-3", "method": "luminescence", "cells": "MT-2", "result": "0.0022 µM"}
{"SMILES": "CC(C)C1=C2[C@H]3CC[C@@H]4[C@@]5(C)CC[C@H](OC(=O)[C@H]6C[C@@H](C(=O)O)C6(C)C)C(C)(C)[C@@H]5CC[C@@]4(C)[C@]3(C)CC[C@@]2(CCNC(=O)c2ccccc2)CC1=O", "strain": "92HT599", "method": "p24 / ELISA", "cells": "MT-2", "result": "<1 µM"}
{"SMILES": "Cc1cc(OCCCS(N)(=O)=O)ccc1NC(=O)COc1ccc(Cl)cc1C(=O)c1cc(F)cc(C(F)(F)F)c1", "strain": "HXB2", "method": "β-galactosidase", "mutations": "RT-K103N L100I", "cells": "HeLa + HELA CD4+", "result": "<0.01 µM"}
{"SMILES": "CC(=O)c1c(C)nc(-c2ccccc2)nc1NC(=O)c1ccccc1", "strain": "1617-1", "method": "GFP / fluorescence", "cells": "HeLa", "result": "0.3 µM"}
{"SMILES": "[2H]C([2H])(NC(=O)c1ccc(Cl)cc1)C(=O)NC[C@H](O)[C@@]12CC[C@]3(C)[C@H](CC[C@@H]4[C@@]5(C)CC[C@H](OC(=O)[C@H]6C[C@@H](C(=O)O)C6(C)C)C(C)(C)[C@@H]5CC[C@]43C)C1=C(C(C)C)C(=O)C2", "strain": "92HT599", "method": "p24 / ELISA", "cells": "MT-2", "result": "<1 µM"}
{"SMILES": "Cc1ccc(OCCOc2ccc(-c3cnc(C)c([C@H](OC(C)(C)C)C(=O)O)c3N3CCC(C)(C)CC3)nc2)cc1", "strain": "NL4-3", "method": "luminescence", "cells": "MT-2", "result": "0.0015 µM"}
{"SMILES": "Cc1cc(CNCC[C@@]23CC[C@]4(C)[C@H](CC[C@@H]5[C@@]6(C)CC[C@H](OC(=O)[C@H]7C[C@@H](C(=O)O)C7(C)C)C(C)(C)[C@@H]6CC[C@]54C)C2=C(C(C)C)C(=O)C3)c(C)o1", "strain": "92HT599", "method": "p24 / ELISA", "cells": "MT-2", "result": "<1 µM"}
{"SMILES": "Cc1ncc(-c2cnc(OC(C)COCc3ccccc3)c(F)c2)c(N2CCC(C)(C)CC2)c1[C@H](OC(C)(C)C)C(=O)O", "strain": "NL4-3", "method": "luminescence", "cells": "MT-2", "result": "0.0025 µM"}
{"SMILES": "Cc1cc(C#N)cc(C(=O)c2cc(Cl)ccc2OCC(=O)Nc2ccc(OCCCN3CC=CC3)cc2C)c1", "strain": "HXB2", "method": "β-galactosidase", "mutations": "RT-V106A Y181C", "cells": "HeLa + HELA CD4+", "result": "<0.01 µM"}
{"SMILES": "COc1cc(Cl)ccc1OCCN(C)c1ccc(-c2cnc(C)c([C@H](OC(C)(C)C)C(=O)O)c2N2CCC(C)(C)CC2)cn1", "strain": "NL4-3", "method": "luminescence", "cells": "MT-2", "result": "0.002 µM"}
{"SMILES": "CC1CC(C)CN(S(=O)(=O)c2ccccc2[N+](=O)[O-])C1", "strain": "7324-1", "method": "GFP / fluorescence", "cells": "HeLa", "result": "1.1 µM"}
{"SMILES": "Cc1ncc(-c2ccc(OCCOc3ccccc3)nc2)c(N2CCC(C)(C)CC2)c1[C@H](OC(C)(C)C)C(=O)O", "strain": "NL4-3", "method": "luminescence", "cells": "MT-2", "result": "0.0017 µM"}
{"SMILES": "Cc1cc(S(N)(=O)=O)ccc1NC(=O)COc1ccc(Cl)cc1C(=O)c1cc(F)cc(F)c1", "strain": "HXB2", "method": "β-galactosidase", "mutations": "RT-K103N V108I", "cells": "HeLa + HELA CD4+", "result": "<0.01 µM"}
{"SMILES": "Cc1noc(C)c1C(=O)NCC[C@@]12CC[C@]3(C)[C@H](CC[C@@H]4[C@@]5(C)CC[C@H](OC(=O)[C@H]6C[C@@H](C(=O)O)C6(C)C)C(C)(C)[C@@H]5CC[C@]43C)C1=C(C(C)C)C(=O)C2", "strain": "92HT599", "method": "p24 / ELISA", "cells": "MT-2", "result": "<1 µM"}
{"SMILES": "Cc1ncc(-c2ccc(OCCN3CCCC3)cn2)c(N2CCC(C)(C)CC2)c1[C@H](OC(C)(C)C)C(=O)O", "strain": "NL4-3", "method": "luminescence", "cells": "MT-2", "result": "0.204 µM"}
{"SMILES": "Cc1cc2[nH]cnc2cc1NC(=O)COc1ccc(Cl)cc1C(=O)c1cc(F)cc(C(F)(F)F)c1", "strain": "HXB2", "method": "β-galactosidase", "mutations": "RT-K103N L100I", "cells": "HeLa + HELA CD4+", "result": "<0.01 µM"}
{"SMILES": "Cc1ccc(OCCN(C)c2ccc(-c3cnc(C)c([C@H](OC(C)(C)C)C(=O)O)c3N3CCC(C)(C)CC3)cn2)cc1C", "strain": "NL4-3", "method": "luminescence", "cells": "MT-2", "result": "0.004 µM"}
{"SMILES": "CCc1cc(C#N)cc(C(=O)c2cc(Cl)ccc2OCC(=O)Nc2ccc(S(N)(=O)=O)cc2C)c1", "strain": "HXB2", "method": "β-galactosidase", "mutations": "RT-Y181C", "cells": "HeLa + HELA CD4+", "result": "<0.01 µM"}

The first 2 rows once more:

SMILES | strain | method | mutations | cells | result
Cc1cc(N2CCS(=O)CC2)ccc1NC(=O)COc1ccc(Cl)cc1C(=O)c1nccs1 | Nevirapine-resistant (RT Y181C) | cytopathic effect / propidium iodide | RT-Y181C | MT-4 | 0.101–1 µM
CC(C)C1=C2[C@H]3CC[C@@H]4[C@@]5(C)CC[C@H](OC(=O)[C@H]6C[C@@H](C(=O)O)C6(C)C)C(C)(C)[C@@H]5CC[C@@]4(C)[C@]3(C)CC[C@@]2([C@@H](O)CNCC(C)(C)NC(=O)c2cccnc2)CC1=O | 92HT599 | p24 / ELISA | - | MT-2 | <1 µM